A mixed list of measured activities; the numbers were collected in NIAID ChemDB.

Shared fields: tests in culture; agent: HIV-1; measure: EC50

a–b is a range or a potency band. ECn is the concentration giving n% inhibition of infection, replication or growth. An empty or dashed field is not shown. Conditions beyond the fields shown may differ between rows.

| SMILES | read by | cells | mutations | strain | value |
|---|---|---|---|---|---|
| CC(=O)CC(c1ccccc1)c1c(O)c2ccccc2oc1=O | trypan blue | ACH-2(HIV-1(IIIB)) + ACH2 |  |  | 0.001–0.01 µM |
| COC[C@@H](c1ccc(C(F)(F)F)cc1)N1CCN(C2(C)CCN(C(=O)c3c(C)ncnc3C)CC2)C[C@@H]1C |  | PBMC | M518V F519L V535M | S | 0.00071 µM |
| Cc1cn([C@H]2C[C@H](N=[N+]=[N-])[C@@H](CO)O2)c(=O)[nH]c1=O | p24 / ELISA / antigen | C8166 |  | IIIB | 0.00217 µM |
| CC(C)(C)OC(=O)N1CCN(C(=O)c2ccc(C3=NN4C(C(=O)c5ccc(F)cc5)Oc5ccccc5C4C3)cc2)CC1 | GFP / reporter gene | MT-4 |  | LAI | >10 µM |
| CC(C)C1=C2[C@H]3CC[C@@H]4[C@@]5(C)CC[C@H](OC(=O)[C@H]6C[C@@H](C(=O)O)C6(C)C)C(C)(C)[C@@H]5CC[C@@]4(C)[C@]3(C)CC[C@@]2(CCNCc2cccnc2N2CCOCC2)CC1=O | p24 / ELISA | MT-2 |  | 92HT599 | <1 µM |
| CC(C)CC(C)NC(=O)c1ccc(C2=NN3C(C(=O)c4ccc(F)cc4)Oc4ccccc4C3C2)cc1 | GFP / reporter gene | MT-4 |  | LAI | <1 µM |
| COc1cc(Cl)ccc1C(=O)NCC[C@@]12CC[C@]3(C)[C@H](CC[C@@H]4[C@@]5(C)CC[C@H](OC(=O)[C@H]6C[C@@H](C(=O)O)C6(C)C)C(C)(C)[C@@H]5CC[C@]43C)C1=C(C(C)C)C(=O)C2 | p24 / ELISA | MT-2 |  | 92HT599 | <1 µM |
| CC(C)NC(=O)c1ccc(C2=NN3C(C(=O)c4ccc(F)cc4)Oc4ccccc4C3C2)cc1 | GFP / reporter gene | MT-4 |  | LAI | <1 µM |
| CC(C)C1=C2[C@H]3CC[C@@H]4[C@@]5(C)CC[C@H](OC(=O)[C@H]6C[C@@H](C(=O)O)C6(C)C)C(C)(C)[C@@H]5CC[C@@]4(C)[C@]3(C)CC[C@@]2(CCNCc2ccc(O[C@H]3CCOC3)cc2)CC1=O | p24 / ELISA | MT-2 |  | 92HT599 | <1 µM |
| COc1ccc(NC(=O)c2ccc(C3=NN4C(C(=O)c5ccc(F)cc5)Oc5ccccc5C4C3)cc2)cc1 | GFP / reporter gene | MT-4 |  | LAI | 1–10 µM |
| Cc1cn(C2CC(N=[N+]=[N-])C(COC(C(=O)O)P(=O)(O)OP(=O)(O)OP(=O)(O)O)O2)c(=O)[nH]c1=O | cytopathic effect / syncytia | CEM |  | IIIB | ≥100 µg/mL |
| [N-]=[N+]=NC[C@H]1O[C@@H](n2cnc3c(NC(=O)Nc4ccccc4)ncnc32)[C@@H]2OC(=O)C[C@@H]21 | cytopathic effect / neutral red | MT-2 |  | LAI | >19 µM |
| CC(C)C1=C2[C@H]3CC[C@@H]4[C@@]5(C)CC[C@H](OC(=O)[C@H]6C[C@@H](C(=O)O)C6(C)C)C(C)(C)[C@@H]5CC[C@@]4(C)[C@]3(C)CC[C@@]2([C@@H](O)CNC(=O)c2ccc(Cl)cc2O[C@@H]2CCOC2)CC1=O | p24 / ELISA | MT-2 |  | 92HT599 | <1 µM |
| Cc1cn(C2CC(N=[N+]=[N-])C(COC(C(=O)O)P(=O)(O)OP(=O)(O)O)O2)c(=O)[nH]c1=O | cytopathic effect / syncytia | CEM |  | IIIB | 35 µg/mL |
| [N-]=[N+]=NC[C@H]1O[C@@H](n2cnc3c(NC(=O)Nc4ccccc4)ncnc32)[C@H](O)[C@@H]1CC(=O)O | cytopathic effect / neutral red | MT-2 |  | LAI | >149 µM |
| CCCc1ccc(C(=O)C2Oc3ccccc3C3CC(c4ccc(C(=O)NC5CCCC5)cc4)=NN23)cc1 | GFP / reporter gene | MT-4 |  | LAI | <1 µM |
| O=C(NCCO)c1c(O)c2ncc(Cc3ccc(F)cc3)cc2n(-c2ccc(F)cc2)c1=O | ATP / luminescence | MT-4 |  | IIIB | 0.0124 µM |
| O=C(Nc1cccnc1)c1ccc(C2=NN3C(C(=O)c4ccc(F)cc4)Oc4ccccc4C3C2)cc1 | GFP / reporter gene | MT-4 |  | LAI | 1–10 µM |
| COC(=O)C(OCC1OC(n2cc(C)c(=O)[nH]c2=O)CC1N=[N+]=[N-])P(=O)(O)O | cytopathic effect / syncytia | CEM |  | IIIB | 10 µg/mL |
| CC(C)C1=C2[C@H]3CC[C@@H]4[C@@]5(C)CC[C@H](OC(=O)[C@H]6C[C@@H](C(=O)O)C6(C)C)C(C)(C)[C@@H]5CC[C@@]4(C)[C@]3(C)CC[C@@]2(CCNCCN2CCS(=O)(=O)CC2)CC1=O | p24 / ELISA | MT-2 |  | 92HT599 | <1 µM |
| O=C(NC1CCCC1)c1ccc(C2=NN3C(C(=O)c4ccc(N5CCCCC5)cc4)Oc4ccccc4C3C2)cc1 | GFP / reporter gene | MT-4 |  | LAI | >10 µM |
| CCCc1cc(=O)oc2c3c(c4c(c12)OC(C)(C)CC4)O[C@@H](C)[C@H](C)[C@@H]3O | XTT | CEM + CEM-SS | RT-V179D | NL4-3 | 0.4 µM |
| COc1cccc2ccc(/C=C/C(=O)Nc3ccccc3F)nc12 | cell fusion / luminescence | TZM-bl + HL2/3 |  |  | 0.96 µM |
| CC(C)C1=C2[C@H]3CC[C@@H]4[C@@]5(C)CC[C@H](OC(=O)[C@H]6C[C@@H](C(=O)O)C6(C)C)C(C)(C)[C@@H]5CC[C@@]4(C)[C@]3(C)CC[C@@]2([C@@H](O)CNCc2ccc(C(F)(F)F)cc2)CC1=O | p24 / ELISA | MT-2 |  | 92HT599 | <1 µM |
| COc1ccc(CNC(=O)c2ccc(C3=NN4C(C(=O)c5ccc(Br)cc5)Oc5ccccc5C4C3)cc2)cc1 | GFP / reporter gene | MT-4 |  | LAI | <1 µM |

Again, the opening 2 rows:

SMILES,read by,cells,mutations,strain,value
CC(=O)CC(c1ccccc1)c1c(O)c2ccccc2oc1=O,trypan blue,ACH-2(HIV-1(IIIB)) + ACH2,,,0.001–0.01 µM
COC[C@@H](c1ccc(C(F)(F)F)cc1)N1CCN(C2(C)CCN(C(=O)c3c(C)ncnc3C)CC2)C[C@@H]1C,,PBMC,M518V F519L V535M,S,0.00071 µM